# Experimental data from paper PMC9734137 (Cell Discovery, 2022).
# B1: aSA3 (VHH)
# VHH: QVQLVESGGGLVQPGGSLRLSCAASGFTSDHYALAWFRQAPGKEREGVSCIDSDGNPFYADSVKGRFTGSRDNAKNTVYLQMNSLKLEDTAVYYCAAGLWYGRSLNSFDYDYWGQGTQVTVSS
# B2: SARS1 RBD (domain or fragment)
# chain: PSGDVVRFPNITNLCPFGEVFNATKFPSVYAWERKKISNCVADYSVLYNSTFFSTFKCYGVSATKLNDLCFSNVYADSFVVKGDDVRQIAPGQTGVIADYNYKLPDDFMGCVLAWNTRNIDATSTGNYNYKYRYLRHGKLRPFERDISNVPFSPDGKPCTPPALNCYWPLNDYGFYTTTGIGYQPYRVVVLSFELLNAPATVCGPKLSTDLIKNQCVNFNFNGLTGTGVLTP
# Experiments:
# [1] = target: B2; experiment: SPR; settings: both partners purified
# [2] = target: B2; experiment: cell-based or functional assay
# [3] = target: aSA3-Fc (alpaca); experiment: SPR; settings: both partners purified
Binder,Kd [1],"IC50, neutralisation of SARS1 pseudovirus (blocks RBD-ACE2) [2]",Kd [3]
B1,361 pM,2220 pM,–
B2,–,–,85.4 pM
